Experimental data from paper PMC6149971, “In Vivo and In Vitro Activities and ADME-Tox Profile of a Quinolizidine-Modified 4-Aminoquinoline: A Potent Anti-P. falciparum and Anti-P. vivax Blood-Stage Antimalarial” (Molecules : A Journal of Synthetic Chemistry and Natural …, 2017).
Not every entry of the source has a single result; some have several. This is not the full list of results. There may be further records. The records of an entry do not match, cause unknown; dose, time, organism, isomer or construct need not be as stated for each record.

Assay: Pharmacokinetics in CD-1 mice after oral administration
Format: in vivo, mouse
Conditions: 10 mg/kg oral, single dose in SSV, plasma
Method: Samples from the pharmacokinetic studies were analyzed under the following conditions: UPLC interfaced with a Premiere XE triple Quadrupole, Waters. A gradient from 2 to 100% (Water, MeOH, 5 mM Ammonium Acetate) over 1.3 min was used in Acquity HSS T3 (dimensions 2.1 by 50 mm, 1.8 µm column, 40 °C temperature, flow rate 0.5 mL/min). Detection was performed in MRM (ESI positive, Q1/Q3 330.16/152.00, Cone Voltage 45 V; Extractor 5 V; Capillary 3.4 kV). The limit of detection was 1 ng/mL. Pharmacokinetic parameters were determined by Non-Compartmental Analysis, using the linear trapezoidal rule and uniform weight.
Pharmacokinetic data were collected in mice by testing the racemate and the enantiomers at the same single dose, and vehicle-utilized for in vivo studies (see composition in paragraph 4.4). Briefly, male CD-1 mice (Charles River Laboratories) weighing 18–22 g received single dose (10 mg/kg) oral administrations of the AM1 racemate and single enantiomers, each dissolved in SSV. For each experiment, twenty-four mice/dose and three mice/time-point were used. Blood samples were collected at eight selected time-points (15, 30 and 60 min; 2, 4, 6, 8 and 24 h) under ethyl ether anaesthesia. […] Pharmacokinetic plasma samples (spiked with internal standard) were filtered (Sirocco filter plate, Waters) under vacuum, and 5 µL analysed by LC-MS/MS.

With `Clc1ccc2c(NC[C@@H]3CCCN4CCCC[C@H]34)ccnc2c1` (relative stereo) the Cmax was 99.6 nM and 32.78 ng/mL.
